Laboratory results taken from article PMC5667890, “A structural explanation for the low effectiveness of the seasonal influenza H3N2 vaccine” (2017).

Biological target: A/Brisbane/10/2007 (H3N2) hemagglutinin with Pro at residue 194 (influenza A virus A/Brisbane/10/2007 (H3N2))
Test: crystal structure

Substance: A/Brisbane/10/2007 (H3N2) hemagglutinin with Pro at residue 194 (natural protein)
- stoichiometry N: 3
